In patent US11052151B2, “Diagnosis and treatment of autism spectrum disorder” (California Institute of Technology, priority 2012, dated 2021):
Counter-ions that a name gives are not always drawn. Residues, ends and D or L forms follow the SMILES beside them.

Experiment: Metabolomics screening (GC/LC-MS) of sera after B. fragilis treatment of MIA offspring
Assay type: in vivo, mice
Conditions: poly(I:C)+B. fragilis offspring relative to saline controls, p<0.05

| Compound | I:C-Bfrag / CON (fold change of serum metabolite) |
| --- | --- |
| 1-palmitoylplasmenylethanolamine | 0.72 |
| 13-HODE+9-HODE | 0.50 |
| CC(O)CO (centres unmarked) [1,2-propanediol] | 0.83 |
| CCCCC/C=C\C/C=C\C/C=C\C/C=C\CCCC(=O)OC[C@@H](O)COP(=O)(O)OCCN [1-arachidonoylglycerophosphoethanolamine] | 0.76 |
| CCCCC/C=C\C/C=C\C/C=C\C/C=C\CCCC(=O)OC[C@@H](O)COP(=O)(O)OC1[C@H](O)[C@H](O)C(O)[C@H](O)[C@H]1O (some centres unmarked) [1-arachidonoylglycerophosphoinositol] | 0.61 |
| CCCCC/C=C\C/C=C\CCCCCCCC(=O)OCC(O)COP(=O)(O)OCCN (centres unmarked) [1-linoleoylglycerophosphoethanolamine] | 0.71 |
| CCCCC/C=C\C/C=C\CCCCCCCC(=O)OCC(O)COP(=O)(O)OC1C(O)C(O)C(O)C(O)C1O (centres unmarked) [1-linoleoylglycerophosphoinositol] | 0.59 |
| CCCCCCCCCCCCCCCCCC(=O)OC[C@@H](O)COP(=O)(O)OC1[C@H](O)[C@H](O)C(O)[C@H](O)[C@H]1O (some centres unmarked) [1-stearoylglycerophosphoinositol] | 0.66 |
| CCC(N)C(=O)O (centres unmarked) [2-aminobutyrate] | 0.76 |
| CCCCC/C=C\C/C=C\C/C=C\C/C=C\CCCC(=O)O[C@H](CO)COP(=O)(O)OCCN [2-arachidonoylglycerophosphoethanolamine] | 0.78 |
| CCC(O)C(=O)O (centres unmarked) [2-hydroxybutyrate (AHB)] | 0.64 |
| O=C(O)CCC(O)C(=O)O (centres unmarked) [2-hydroxyglutarate] | 0.83 |
| CCC(C)C(=O)OC(CC(=O)[O-])C[N+](C)(C)C (centres unmarked) [2-methylbutyroylcarnitine] | 0.66 |
| Nc1ccn([C@H]2C[C@H](O)[C@@H](CO)O2)c(=O)n1 [2′-deoxycytidine] | 1.32 |
| O=C(O)C(O)Cc1ccc(O)cc1 (centres unmarked) [3-(4-hydroxyphenyl)lactate] | 0.81 |
| C[N+](C)(C)CC(=O)CC(=O)[O-] [3-dehydrocarnitine] | 0.71 |
| CC(O)CC(=O)O (centres unmarked) [3-hydroxybutyrate (BHBA)] | 0.66 |
| CCCCCCCC(O)CC(=O)O (centres unmarked) [3-hydroxydecanoate] | 0.51 |
| CC(C)C(=O)C(=O)O [3-methyl-2-oxobutyrate] | 0.68 |
| CCC(C)C(=O)C(=O)O (centres unmarked) [3-methyl-2-oxovalerate] | 0.67 |
| NC(=O)NCCC(=O)O [3-ureidopropionate] | 0.64 |

| Compound | I:C-Bfrag / CON (fold change of serum metabolite) |
| --- | --- |
| N=C(N)NCCCC(=O)O [4-guanidinobutanoate] | 0.65 |
| CC(C)CC(=O)C(=O)O [4-methyl-2-oxopentaoate, 4-methyl-2-oxopentanoate] | 0.63 |
| O=C1CC[C@@H](C(=O)O)N1 [5-oxoproline] | 0.80 |
| CCCCC/C=C\CC(O)C(O)CCCCCCCC(=O)O (centres unmarked) [9,10-hydroxyoctadec-12(Z)-enoic acid] | 0.48 |
| CCCCC[C@H](O)[C@@H](O)C/C=C\CCCCCCCC(=O)O [12,13-hydroxyoctadec-9(Z)-enoate] | 0.54 |
| CCCCC/C=C\C[C@H](O)/C=C/C=C\C/C=C\CCCC(=O)O [12-HETE] | 0.57 |
| Nc1ncnc2c1ncn2C1OC(COP(=O)(O)O)C(O)C1O (centres unmarked) [adenosine 5′-monophosphate (AMP)] | 20.92 |
| Nc1ncnc2c1ncn2[C@@H]1O[C@H](CO)[C@@H](O)[C@H]1O [adenosine] | 5.63 |
| O=C(O)CCCCC(=O)O [adipate] | 0.62 |
| CCCCC/C=C\C/C=C\C/C=C\C/C=C\CCCCCC(=O)O [adrenate] | 0.75 |
| O=S(=O)(O)Oc1ccccc1O [catechol sulfate] | 0.77 |
| OC1C(O)C(O)C(O)C(O)C1O (centres unmarked) [chiro-inositol] | 0.66 |
| O=C(O)CC(O)(CC(=O)O)C(=O)O [citrate] | 0.80 |
| CCCCC/C=C\C/C=C\CCCCCCCCCC(=O)O [dihomo-linoleate (20:2n6)] | 0.63 |
| CC/C=C\C/C=C\C/C=C\C/C=C\C/C=C\C/C=C\CCC(=O)O [docosahexaenoate (DHA; 22:6n3)] | 0.77 |
| CC/C=C\C/C=C\C/C=C\C/C=C\C/C=C\CCCCCC(=O)O [docosapentaenoate (n3 DPA; 22:5n3)] | 0.72 |
| CCCCC/C=C\C/C=C\C/C=C\C/C=C\C/C=C\CCC(=O)O [docosapentaenoate (n6 DPA; 22:5n6)] | 0.70 |
| O=C(O)CCCCCCCCCCC(=O)O [dodecanedioate] | 0.65 |
| OC[C@@H](O)[C@@H](O)CO [erythritol] | 0.79 |
| O=C(O)/C=C/C(=O)O [fumarate] | 0.64 |
| N[C@@H](CCC(=O)N[C@@H](Cc1c[nH]c2ccccc12)C(=O)O)C(=O)O [gamma-glutamyltryptophan] | 0.77 |

| Compound | I:C-Bfrag / CON (fold change of serum metabolite) |
| --- | --- |
| CC(C)[C@H](NC(=O)CN)C(=O)O [glycylvaline] (H-Gly-Val-OH) | 0.22 |
| Nc1nc2c(ncn2[C@@H]2O[C@H](COP(=O)(O)O)[C@@H](O)[C@H]2O)c(=O)[nH]1 [guanosine 5′-monophosphate (5′-GMP)] | 5.74 |
| CCCCCCC(=O)O [heptanoate (7:0)] | 0.81 |
| O=C(O)CCCCCCCCCCCCCCC(=O)O [hexadecanedioate] | 0.54 |
| CCCCCC(=O)OC(CC(=O)O)C[N+](C)(C)C.[Cl-] (centres unmarked) [hexanoylcarnitine] | 0.58 |
| O=c1[nH]cnc2nc[nH]c12 [hypoxanthine] | 8.55 |
| OC[C@H]1O[C@@H](n2cnc3c(O)ncnc32)[C@H](O)[C@@H]1O [inosine] | 8.36 |
| CC(C)C(=O)O[C@H](CC(=O)[O-])C[N+](C)(C)C [isobutyrylcarnitine] | 0.68 |
| CC(C)CC(=O)O[C@H](CC(=O)[O-])C[N+](C)(C)C [isovalerylcarnitine] | 0.76 |
| CCCCCCCCCCCC(=O)O [laurate (12:0)] | 0.85 |
| CCCCC/C=C\C/C=C\CCCCCCCC(=O)O [linoleate (18:2n6)] | 0.64 |
| O=C(O)CC(O)C(=O)O (centres unmarked) [malate] | 0.69 |
| CCCCCCCCCCCCCCCCC(=O)O [margarate (17:0)] | 0.60 |
| CCCCCCCC/C=C\C/C=C\C/C=C\CCCC(=O)O [mead acid (20:3n9)] | 0.74 |
| CCCCCCCCCCCCCC(=O)O [myristate (14:0)] | 0.70 |
| NC(=O)c1cccnc1 [nicotinamide] | 0.79 |
| O=C(O)CCCCCCCCCCCCCCCCC(=O)O [octadecanedioate] | 0.53 |
| CCCCCCCC(=O)O[C@H](CC(=O)O)C[N+](C)(C)C [octanoylcarnitine] | 0.69 |
| CCCCCCCC/C=C\CCCCCCCC(=O)O [oleate (18:1n9)] | 0.56 |
| CCCCCCCCCCCCCCCC(=O)O [palmitate (16:0)] | 0.72 |
| CCCCCC/C=C\CCCCCCCC(=O)O [palmitoleate (16:1n7)] | 0.70 |

| Compound | I:C-Bfrag / CON (fold change of serum metabolite) |
| --- | --- |
| CCCCCCCCC(=O)O [pelargonate (9:0)] | 0.81 |
| CO[C@H]1[C@H](O)[C@@H](O)[C@@H](O)[C@H](O)[C@@H]1O [pinitol] | 0.61 |
| O=c1[nH]cc([C@@H]2O[C@H](CO)[C@@H](O)[C@H]2O)c(=O)[nH]1 [pseudouridine] | 0.89 |
| OC[C@@H](O)[C@@H](O)[C@@H](O)CO [ribitol] | 0.74 |
| O=C[C@H](O)[C@H](O)[C@H](O)CO [ribose] | 1.97 |
| O=C(CO)[C@H](O)[C@H](O)CO [ribulose] | 0.68 |
| OC[C@@H](O)[C@@H](O)[C@H](O)[C@@H](O)CO [sorbitol] | 0.63 |
| CC/C=C\C/C=C\C/C=C\C/C=C\CCCCC(=O)O [stearidonate (18:4n3)] | 0.66 |
| O=C(O)CCCCCCCCCCCCC(=O)O [tetradecanedioate] | 0.57 |
| N[C@@H](Cc1ccc(O)cc1)C(=O)O [tyrosine] | 0.85 |
| O=C(O)CCCCCCCCCC(=O)O [undecanedioate] | 0.66 |
| O=c1cc[nH]c(=O)[nH]1 [uracil] | 0.64 |
| Oc1nc(O)c2nc(O)[nH]c2n1 [urate] | 0.84 |
| CCCCC(=O)O[C@H](CC(=O)[O-])C[N+](C)(C)C [valerylcarnitine] | 0.56 |
| OC[C@@H](O)[C@H](O)[C@@H](O)CO [xylitol] | 1.62 |
| TDTEDKGEFLSEGGGV [Fibrinogen cleavage peptide detected in serum] | 1.43 |
| TDTEDKGEFLSEGGGVR (ASD-related metabolite) | 3.46 |
| dihomo-linolenate (20:3n3 or n6) | 0.69 |
| eicosenoate | 0.59 |
| equol sulfate | 0.70 |
